Results reported in patent US9492416B2, “Use of caftaric acid and lactic bacterium in food supplement for regulating skin pigmentation” (Nestec S.A., priority 2010, dated 2016).

System: chlorogenate esterase
Test: Hydrolyzis of caftaric acid with chlorogenate esterase (HPLC)
Assay type: biochemical, Aspergillus japonicus
Settings: 37° C.

SMILES | Concentration in % relative to untreated reference at t = 0 (pH 7.0, time 0 min) | Concentration in % relative to untreated reference at t = 0 (pH 7.0, time 15 min) | Concentration in % relative to untreated reference at t = 0 (pH 7.0, time 30 min) | Concentration in % relative to untreated reference at t = 0 (pH 7.0, time 60 min) | Concentration in % relative to untreated reference at t = 0 (pH 7.0, time 120 min) | Concentration in % relative to untreated reference at t = 0 (pH 7.0, time 240 min)
O=C(O)/C=C/c1ccc(O)c(O)c1 [Caffeic Acid] | 0% | 18% | 36% | 57% | 81% | 98%
O=C(/C=C/c1ccc(O)c(O)c1)O[C@@H](C(=O)O)[C@@H](O)C(=O)O [Caftaric acid] | 99% | 82% | 64% | 43% | 19% | 2%
